Anti-infective test results gathered from many reports (values: NIAID ChemDB through PubChem).

All rows: whole-cell or culture tests; agent: HIV-1; cell line: MT-4; read by: MTT / absorbance; endpoint: EC50

ECn: concentration that inhibits the pathogen or its effect by n%. Neighbouring rows are from separate reports.

smiles | strain or isolate | result
Cc1cc(NS(=O)(=O)C(F)(F)F)ccc1N1C(=O)c2ccc(Cl)cc2C1=O | IIIB | 0.004 µM
Cc1c(CC23CC4CC(CC(C4)C2)C3)nc(SCC(=O)Nc2ccc(S(N)(=O)=O)cc2)[nH]c1=O | RES056 | >4.99 µM
O=C(N/N=C/c1ccc(O)cc1)c1csc(N2N=C(c3ccccc3)CC2c2ccc(Cl)cc2)n1 | IIIB | >17.75 µM
Cc1cn([C@H]2C[C@H](N=[N+]=[N-])[C@@H](CO)O2)c(=O)[nH]c1=O | NL4-3 | 0.063 µM
CCOc1cc(/C=C2\SC(=O)N(CC(=O)c3ccccc3)C2=O)c(Br)cc1OCc1ccc(C(=O)O)cc1 | IIIB | 3.99 µM
COc1ccc(/C=N/NC(=O)c2csc(N3N=C(c4ccccc4)CC3c3ccc(Cl)cc3)n2)cc1O | IIIB | >61.75 µM
COc1ccc(CSc2nc(CC34CC5CC(CC(C5)C3)C4)c(C)c(=O)[nH]2)cc1 | RES056 | >1.92 µM
Cc1cc(N=Cc2ccc(O)cc2)ccc1N1C(=O)c2ccc(Cl)cc2C1=O | IIIB | 0.263 µM
O=C1C=C2C([C@H]3C([C@H]4CC5=CC(=O)O[C@@]56C[C@@H]4N4CCC[C@@H]46)C4=CC(=O)O[C@@]45C[C@@H]3N3CCC[C@@H]35)=C[C@@H]3C[C@@]2(O1)[C@H]1CCCN31 | NL4-3 | 108 µM
CCc1c(CC23CC4CC(CC(C4)C2)C3)nc(SCC(=O)Nc2ccc(C(N)=O)cc2)[nH]c1=O | IIIB | 0.27 µM
O=C1C=C2C=C[C@H]3C[C@]2(O1)[C@H]1CCCCN31 | NL4-3 | 56.4 µM
Cc1c(CC23CC4CC(CC(C4)C2)C3)nc(SCC(=O)Nc2ccccc2)[nH]c1=O | IIIB | >295 µM
COC(C(=O)O)c1c(C)nc2ccc(Br)cc2c1-c1ccc(Cl)cc1 | IIIB | 5.8 µM
CCc1c(CC23CC4CC(CC(C4)C2)C3)nc(SCC(=O)Nc2ccc(S(N)(=O)=O)cc2)[nH]c1=O | RES056 | >12.25 µM
O=C(N/N=C/c1ccccc1Cl)c1csc(N2N=C(c3ccccc3)CC2c2ccc(Cl)cc2)n1 | IIIB | >125 µM
O=C1C=C2[C@@H]3O[C@@H]3[C@@H]3C[C@@]2(O1)[C@H]1CCCN31 | NL4-3 | 85.5 µM
CC(=S)Nc1ccc(N2C(=O)c3ccc(Cl)cc3C2=O)c(C)c1 | IIIB | 0.099 µM
CCc1c(CC23CC4CC(CC(C4)C2)C3)nc(SCC(=O)Nc2ccc(C)cc2[N+](=O)[O-])[nH]c1=O | IIIB | 1.25 µM
C[C@]12CCCN1[C@H]1C[C@@]23OC(=O)C=C3C[C@@H]1C1=C2C[C@H]3[C@H](O)C[C@]2(OC1=O)[C@H]1CCCN31 | NL4-3 | 79.6 µM
CCc1c(CC23CC4CC(CC(C4)C2)C3)nc(SCC(=O)c2ccccc2)[nH]c1=O | IIIB | 0.19 µM
O=C(N/N=C/c1ccccc1O)c1csc(N2N=C(c3ccccc3)CC2c2ccc(Cl)cc2)n1 | IIIB | >7.33 µM

Repeating the final 2 entries:

smiles	strain or isolate	result
CCc1c(CC23CC4CC(CC(C4)C2)C3)nc(SCC(=O)c2ccccc2)[nH]c1=O	IIIB	0.19 µM
O=C(N/N=C/c1ccccc1O)c1csc(N2N=C(c3ccccc3)CC2c2ccc(Cl)cc2)n1	IIIB	>7.33 µM